Measurements taken from publication PMC12313075, “Legionella effector LpPIP recruits protein phosphatase 1 to the mitochondria to induce dephosphorylation of outer membrane proteins” (2025).

Target: partner chain of the complex shown
Assay: co-immunoprecipitation (anti-FLAG) and mass spectrometry
Conditions: read off a plot

B1: unnamed (protein)
parent chain 1: MQNEKEVKELIQSDKKKRVTWNDNQNEGQIDEKFLKIGTASTPYKNKLDESIAQLMEEGYSEIEATAITGKSVTPAGMVIYNNPVFYKSKESIDIEKANRYNFFSIKNIGLGIVALAAAATVGLVVSKNS
parent chain 2: MADAASQVLLGSGLTILSQPLMYVKVLIQVGYEPLPPTIGRNIFGRQVCQLPGLFSYAQHIASIDGRRGLFTGLTPRLCSGVLGTVVHGKVLQHYQESDKGEELGPGNVQKEVSSSFDHVIKETTREMIARSAATLITHPFHVITLRSMVQFIGRESKYCGLCDSIITIYREEGILGFFAGLVPRLLGDILSLWLCNSLAYLVNTYALDSGVSTMNEMKSYSQAVTGFFASMLTYPFVLVSNLMAVNNCGLAGGCPPYSPIYTSWIDCWCMLQKEGNMSRGNSLFFRKVPFGKTYCCDLKMLI
  enrichment: 2.9 log2
